Measured values from several laboratories, pooled; numbers as filed in NIAID ChemDB.

Common to all: growth or infection tests; agent: Mycobacterium smegmatis

ECn: concentration that inhibits the pathogen or its effect by n%. Conditions beyond the fields shown may differ between rows. MIC50, MIC90 and the like: level of inhibition, or share of isolates inhibited. Two numbers with a dash give a range or band.

CCCCCCCCCCCCCC(=O)NC(CCC(=O)O)(CCC(=O)O)CCC(=O)O ; endpoint: MIC ; strain: mc155 ; value: 36 µg/mL
CCCC[C@@H](CN[C@H](CN)CCN)NCc1cccc2ccccc12 ; read by: absorbance ; endpoint: MIC ; strain: mc2155 ; value: 50 µM
CCCCCCCCCCCCCCCCCCCCCCCC(=O)NC(CCC(=O)O)(CCC(=O)O)CCC(=O)O ; endpoint: MIC ; strain: mc155 ; value: 54 µg/mL
COc1c(N2CCC3(CC2)OCCO3)c(F)c([N+](=O)[O-])c2c(=O)c(C(=O)O)cn(C3CC3)c12 ; read by: agar ; endpoint: MIC ; strain: ATCC 14468 ; value: 6.75 µM
CN1CCN(c2cc3c(=O)c(C(=O)O)c4n(c3cc2F)CS4)CC1c1ccccc1 ; read by: agar ; endpoint: MIC ; strain: ATCC 14468 ; value: 58.76 µM
CCOC(=O)c1cccc(-n2sc(=O)n(C3Cc4ccccc4C3)c2=O)c1 ; read by: broth dilution ; endpoint: MIC ; strain: mc2155 ; value: 50 µg/mL
CCCCCCCCCCCCCC#CCC#CC(=O)O ; endpoint: MIC99 ; strain: mc2155 ; value: 86.1 µM
COc1c(N2C[C@@H]3CCCN[C@@H]3C2)c(F)cc2c(=O)[nH]c(=O)n(C3CC3)c12 ; endpoint: MIC99 ; strain: A91V mutant ; value: 200 µg/mL
NC1CCN(CCCCn2ccc(Nc3ccc(COCCCNCC4CC4)cn3)nc2=O)CC1 ; read by: turbidity ; endpoint: MIC ; value: 32–128 µg/mL
CSCC[C@H](NS(=O)(=O)c1ccc(C)cc1)C(=O)N/N=C(\C)c1ccsc1 ; read by: broth dilution / visual reading ; endpoint: MIC ; strain: ATCC 607 ; value: >250 µg/mL
CCCCCCSCCCCCCCCCCCCC#CC(=O)O ; endpoint: MIC99 ; strain: mc22389 ; value: 141 µM
CSCC[C@H](NS(=O)(=O)c1ccc(C)cc1)C(=O)N/N=C/c1ccc(N2CCOCC2)cc1 ; read by: broth dilution / visual reading ; endpoint: MIC ; strain: ATCC 607 ; value: >250 µg/mL
CCCCCCCCCCCCCCCCCCCCC(=O)NC(C)(CCC(=O)O)CCC(=O)O ; endpoint: MIC ; strain: mc155 ; value: 14 µg/mL
COc1c(N2CCC(n3c(=O)[nH]c4cc(Cl)ccc43)CC2)c(F)c([N+](=O)[O-])c2c(=O)c(C(=O)O)cn(C3CC3)c12 ; read by: agar ; endpoint: MIC ; strain: ATCC 14468 ; value: 10.93 µM
C[C@H](N)C(=O)NCc1ccc(Nc2ccn(CCCCN3CCC(N)CC3)c(=O)n2)nc1 ; read by: turbidity ; endpoint: MIC ; value: 32–128 µg/mL
CCc1nc(NCCCc2ccccc2)c2cc(C)sc2n1 ; read by: resazurin ; endpoint: EC50 ; strain: mc2155 ; value: 1.7 µM
Cc1cccc(Cl)c1-n1sc(=O)n(CC2CC2)c1=O ; read by: broth dilution ; endpoint: MIC ; strain: mc2155 ; value: 100 µg/mL
CCc1cc(C(N)=S)ccn1 ; endpoint: MIC ; strain: MC^2 847 ; value: 60 µg/mL
CCc1nc(NC(C(=O)O)C(C)C)c2cc(C)sc2n1 ; read by: resazurin ; endpoint: EC50 ; strain: mc2155 ; value: 52 µM
CSCC[C@H](NS(=O)(=O)c1ccc(C)cc1)C(=O)N/N=C(\C)c1ccncc1 ; read by: broth dilution / visual reading ; endpoint: MIC ; strain: ATCC 607 ; value: >250 µg/mL
CCCCCCCCCCCCCCCCC#CC(=O)O ; endpoint: MIC99 ; strain: mc22389 ; value: 63.7 µM
COc1c(N2CCN(Cc3ccc4c(c3)OCO4)CC2)c(F)c(N)c2c(=O)c(C(=O)O)cn(C3CC3)c12 ; read by: agar ; endpoint: MIC ; strain: ATCC 14468 ; value: 6.13 µM
CCCNCCCOCc1ccc(Nc2ccn(CCCCN3CCC(N)CC3)c(=O)n2)nc1 ; read by: turbidity ; endpoint: MIC ; value: 32–128 µg/mL
CO[C@@H]1O[C@H]([C@H](O)CO)C(O)C1O ; read by: absorbance ; endpoint: MIC ; strain: mc2155 ; value: >2.6 µM
Cc1ccc([N+](=O)[O-])cc1NC(=O)Nc1cccc(Cl)c1 ; read by: broth dilution / turbidity ; endpoint: MIC90 ; value: >40 µg/mL
CO[C@H]1/C=C/O[C@@]2(C)Oc3c(C)c(O)c4c(O)c(cc(O)c4c3C2=O)NC(=O)/C(C)=C\C=C\[C@H](C)[C@H](O)[C@@H](C)[C@@H](O)[C@@H](C)[C@H](OC(C)=O)[C@@H]1C ; endpoint: MIC ; strain: mc155 ; value: 25 µg/mL
NCCCNC(=O)c1ccnc(Nc2ccn(CCOCCN3CCC(N)CC3)c(=O)n2)c1 ; read by: turbidity ; endpoint: MIC ; value: 32–128 µg/mL
O=C(O)c1c2n(c3cc([N+](=O)[O-])c(N4CCN(C(=O)c5ccco5)CC4)cc3c1=O)CS2 ; read by: agar ; endpoint: MIC ; strain: ATCC 14468 ; value: 0.85 µM
CSCC[C@H](NS(=O)(=O)c1ccc(C)cc1)C(=O)N/N=C/c1cc2c(cc1[N+](=O)[O-])OCO2 ; read by: broth dilution / visual reading ; endpoint: MIC ; strain: ATCC 607 ; value: >250 µg/mL
O=C(O)c1cn(C2CC2)c2cc(N3C[C@@H]4CCCN[C@@H]4C3)c(F)cc2c1=O ; endpoint: MIC99 ; strain: A91V mutant ; value: 0.5 µg/mL
COc1ccc(CC2C3=C(CCCC3)CCN2c2c(F)c(N)c3c(=O)c(C(=O)O)cn(C4CC4)c3c2OC)cc1 ; read by: agar ; endpoint: MIC ; strain: ATCC 14468 ; value: 5.72 µM
COc1c(N2CC[C@@H](CN)C2)c(F)cc2c(=O)c(C(=O)O)cn(C3CC3)c12 ; endpoint: MIC99 ; strain: G89C mutant ; value: 1 µg/mL
COc1cc2c(cc1OC)CN(c1cc3c(=O)c(C(=O)O)c4n(c3cc1F)CS4)CC2 ; read by: agar ; endpoint: MIC ; strain: ATCC 14468 ; value: 113 µM
CCCCCCCCCCCCCCCC#CC(=O)OCCO ; endpoint: MIC99 ; strain: mc2155 ; value: 2.3 µM
COc1c(N2CCN(Cc3ccc4c(c3)OCO4)CC2)c(F)c([N+](=O)[O-])c2c(=O)c(C(=O)O)cn(C3CC3)c12 ; read by: agar ; endpoint: MIC ; strain: ATCC 14468 ; value: 1.44 µM
O=c1sn(-c2ccccc2C(F)(F)F)c(=O)n1CC1CC1 ; read by: broth dilution ; endpoint: MIC ; strain: mc2155 ; value: 50 µg/mL
CC[C@H](C)[C@@H](NC(=O)[C@@H](CCC(=O)O)NC(=O)[C@H](Cc1cnc[nH]1)NC(=O)[C@H](CC(C)C)NC(=O)[C@H](N)Cc1ccccc1)C(=O)N[C@H]1CCCCNC1=O ; read by: resazurin ; endpoint: MIC ; value: 0.78 µg/mL
CCCCCNCCNCCCCC ; endpoint: EC50 ; strain: ATCC 607 ; value: <250 µg/mL
COc1ccc(CC2C3=C(CCCC3)CCN2c2cc3c(=O)c(C(=O)O)c4n(c3cc2F)CS4)cc1 ; read by: agar ; endpoint: MIC ; strain: ATCC 14468 ; value: 98.69 µM
CSCC[C@H](NS(=O)(=O)c1ccc(C)cc1)C(=O)N/N=C/c1ccc(-c2ccc(Cl)cc2)o1 ; read by: broth dilution / visual reading ; endpoint: MIC ; strain: ATCC 607 ; value: >250 µg/mL
CN1CCN(c2cc3c(=O)c(C(=O)O)c4n(c3cc2[N+](=O)[O-])CS4)CC1c1ccccc1 ; read by: agar ; endpoint: MIC ; strain: ATCC 14468 ; value: 52.25 µM
NC1CCN(CCCCn2ccc(Nc3nccc(C(=O)NC4CNC4)c3F)nc2=O)CC1 ; read by: turbidity ; endpoint: MIC ; value: 32–128 µg/mL
CCCCCCCCOCC(C)(COCCCCCCCC)[C@@H]1O[C@H]([C@H](O)CO)C(O)C1O ; read by: absorbance ; endpoint: MIC ; strain: mc2155 ; value: 0.5 µM
CCC1CN(c2c(F)cc3c(=O)[nH]c(=O)n(C4CC4)c3c2OC)CCN1 ; endpoint: MIC99 ; strain: G89C mutant ; value: 200 µg/mL
CSCC[C@H](NS(=O)(=O)c1ccc(C)cc1)C(=O)N/N=C/c1sccc1C ; read by: broth dilution / visual reading ; endpoint: MIC ; strain: ATCC 607 ; value: >250 µg/mL
CCC(C)NCCNC(C)CC ; endpoint: EC50 ; strain: ATCC 607 ; value: <125 µg/mL
CCCC[C@@H](CN[C@@H](CN)CCCCNC)NCc1cccc2ccccc12 ; read by: absorbance ; endpoint: MIC ; strain: mc2155 ; value: 25 µM
CCSCCCCCCCCCCCCC#CC(=O)O ; endpoint: MIC99 ; strain: mc2651 ; value: 76.3 µM
Cc1c(N2CC[C@@H](CN)C2)c(F)cc2c(=O)n(N)c(=O)n(C3CC3)c12 ; endpoint: MIC99 ; strain: WT ; value: 0.625 µg/mL
CC(C)CNCCNCC(C)C ; endpoint: EC50 ; strain: ATCC 607 ; value: >250 µg/mL
CCCCCCCCCCCCCC#CC(=O)OCCO ; endpoint: MIC99 ; strain: mc22389 ; value: 42.3 µM
O=C(NCCOCCOCCNC(=O)c1ccc2c(c1)B(O)OC2)c1ccc2c(c1)B(O)OC2 ; read by: visual reading / absorbance ; endpoint: MIC ; strain: mc2155 ; value: 390–780 µM
CSCC[C@H](NS(=O)(=O)c1ccc(C)cc1)C(=O)N/N=C/c1ccccc1Cl ; read by: broth dilution / visual reading ; endpoint: MIC ; strain: ATCC 607 ; value: >250 µg/mL
C=C1C2CCC(C(=O)O)[C@@]23CC[C@H](C3)C1(C)C ; read by: agar diffusion ; endpoint: MIC ; strain: ATCC 700084 ; value: 12.5 µg/mL
CCCCCN(CCCCC)CCN(CCCCC)CCCCC ; endpoint: EC50 ; strain: ATCC 607 ; value: <8 µg/mL
CCCCCCCCCCCCCCCC#CC(=O)OCC(O)CO ; endpoint: MIC99 ; strain: mc22389 ; value: 17.6 µM
CSCC[C@H](NS(=O)(=O)c1ccc(C)cc1)C(=O)N/N=C/c1ccc(Cl)cc1 ; read by: broth dilution / visual reading ; endpoint: MIC ; strain: ATCC 607 ; value: >250 µg/mL
O=c1sn(-c2ccc([N+](=O)[O-])cc2Cl)c(=O)n1C1Cc2ccccc2C1 ; read by: broth dilution ; endpoint: MIC ; strain: mc2155 ; value: 50 µg/mL
CCCCCCCCO ; read by: absorbance ; endpoint: MIC ; strain: mc2155 ; value: >3.8 µM
COc1c(N2CC[C@@H](CN)C2)c(F)cn2c(=O)n(N)c(=O)c(C3CC3)c12 ; endpoint: MIC99 ; strain: D95Y mutant ; value: 40 µg/mL
CCCCCCCCOCC(C)(COc1ccccc1)[C@@H]1O[C@H]([C@H](O)CO)C(O)C1O ; read by: absorbance ; endpoint: MIC ; strain: mc2155 ; value: 0.09 µM
O=C(O)c1c2n(c3cc([N+](=O)[O-])c(N4CCSCC4)cc3c1=O)CS2 ; read by: agar ; endpoint: MIC ; strain: ATCC 14468 ; value: 132 µM

For reference, 5 entries again:

CCCC[C@@H](CN[C@@H](CN)CCCCNC)NCc1cccc2ccccc12 ; read by: absorbance ; endpoint: MIC ; strain: mc2155 ; value: 25 µM
COc1c(N2CCC(n3c(=O)[nH]c4cc(Cl)ccc43)CC2)c(F)c([N+](=O)[O-])c2c(=O)c(C(=O)O)cn(C3CC3)c12 ; read by: agar ; endpoint: MIC ; strain: ATCC 14468 ; value: 10.93 µM
COc1c(N2C[C@@H]3CCCN[C@@H]3C2)c(F)cc2c(=O)[nH]c(=O)n(C3CC3)c12 ; endpoint: MIC99 ; strain: A91V mutant ; value: 200 µg/mL
O=C(NCCOCCOCCNC(=O)c1ccc2c(c1)B(O)OC2)c1ccc2c(c1)B(O)OC2 ; read by: visual reading / absorbance ; endpoint: MIC ; strain: mc2155 ; value: 390–780 µM
Cc1cccc(Cl)c1-n1sc(=O)n(CC2CC2)c1=O ; read by: broth dilution ; endpoint: MIC ; strain: mc2155 ; value: 100 µg/mL